Measured values from several laboratories, pooled; numbers as filed in NIAID ChemDB.

All rows: tests in culture

ECn is the concentration giving n% inhibition of infection, replication or growth. A number after MIC or MFC names an inhibition level or a share of isolates. Neighbouring rows are from separate reports. Blank or dashed fields: not listed here. Percent inhibition refers to the dose given; in toxicity tests it is the harm to the cells. Fold resistance has wild type as its base.

compound,read-out,strain,cells,changes,read by,tested at,conditions,organism,value
O=c1ccn(CC(CO)OCP(=O)(O)O)c(=O)[nH]1,EC50,AD169,HEL,,cytopathic effect,,,Cytomegalovirus,70 µg/mL
Nc1ncnc2c1ncn2CCOCP(=O)(O)O,EC50,,Primary duck hepatocytes,,hybridisation,,,Duck hepatitis B virus,0.14 µM
CC[C@@]1(O)C(=O)OCc2c1cc1n(c2=O)Cc2c-1nc1cc3c(cc1c2CCl)OCO3,MIC,JHY6-1C,,,,,,Saccharomyces cerevisiae,3.12 µg/mL
CCCCCCCCCN1[C@H](CN)[C@@H](O)[C@H](O)[C@H]1CO,EC50,,,,,,,Dengue virus,>50 µM
Nc1ccn(C[C@@H](CO)OCP(=O)(O)O)c(=O)n1,EC50,WILD TYPE,C1271,,plaque count,,,Mouse cytomegalovirus,0.2 µM
CCOC1c2cc(OC)c(OC)cc2-c2ccc3cc4c(cc3c2N1C)OCO4,MIC,JHY6-1C,,,,,,Saccharomyces cerevisiae,3.12 µg/mL
Cc1c(N2C[C@@H](F)[C@@H](C3(N)CC3)C2)c(F)c(N)c2c(=O)c(C(=O)O)cn([C@@H]3C[C@@H]3F)c12,MIC90,25 strains (methicillin-susceptible),,,,,,Staphylococcus aureus,0.03 µg/mL
O=P(O)(O)COCCn1cnc2c(N3CCCCC3)ncnc21,EC50,,P3HR-1,,hybridisation,,,Epstein-Barr virus,19 µg/mL
C#C[C@]1(CO)O[C@@H](n2cnc3c(N)nc(F)nc32)CC1O,EC50,ROD9,MAGIC-5A,K65R M184V,β-galactosidase / absorbance,,,HIV-2,0.008 µM
CN(C)c1ncnc2c1ncn2CCOCP(=O)(O)O,EC50,,P3HR-1,,hybridisation,,,Epstein-Barr virus,1.1 µg/mL
Cc1cn([C@H]2O[C@@H](CO)[C@H](O)[C@H]2F)c(=O)[nH]c1=O,EC50,WILD TYPE,HepG2,,,,,Duck hepatitis B virus,0.047 µM
O=C(Nc1ccc(C(F)(F)F)cc1)c1cc(Cl)ccc1OP(=O)(c1ccccc1)c1ccccc1,MIC,My 235/80,,,,,14 d,Mycobacterium kansasii,4 µM
Nc1ccnc2c1ncn2[C@H]1C=C[C@@H](OCP(=O)(O)O)O1,EC90,TRIM (TYPE 8),,,virus yield,,,Adenovirus,14 µg/mL
C[C@@H](O)C1=C[C@@H](n2cnc3c(N)ncnc32)[C@H](O)[C@@H]1O,EC50,Toyoshima,VERO,,plaque count,,,Measles virus,0.25 µg/mL
O=C(Nc1ccc(Cl)cc1)c1cc(Cl)ccc1OP(=O)(c1ccccc1)c1ccccc1,MIC,My 235/80,,,,,7 d,Mycobacterium kansasii,4 µM
FC(F)(F)c1cccc([Se][Se]c2cccc(C(F)(F)F)c2)c1,MIC,,,,broth dilution,,,Candida dubliniensis,>64 µg/mL
NC1CCN(c2nc3c(cc2F)c(=O)c(C(=O)O)cn3-c2ccc(F)cc2F)C1,MIC50,38 strains (ampicillin-susceptible),,,,,,Haemophilus influenzae,≤0.004 µg/mL
CO[C@@H]1C[C@@H](C[C@H]2CC[C@H](C)[C@H](CC(O)CCC(C)/C=C(\C)C(=O)O)O2)OC2(O[C@](C)([C@H]3CC[C@@](C)([C@@H]4O[C@@H]([C@H]5O[C@@](O)(CO)[C@H](C)C[C@@H]5C)C[C@@H]4C)O3)C[C@H]2C)[C@@H]1C,inhibition,RH,,,uracil uptake / radiometric,1 µg/mL,,Toxoplasma gondii,100%
C=C1C=C(C)c2cc3c(COC(C)=O)cc(=O)n(C)c3c3c2N1CO3,EC50,,BC3,,GFP / microscopy,,,Kaposi sarcoma virus,0.5 µM
O=c1c2ccccc2[se]n1-c1cc([N+](=O)[O-])ccn1,MIC,,,,,,,Vesicular stomatitis virus,500 µg/mL
COc1ccc(-c2oc3c4c(cc(O)c3c(=O)c2O)OC(C)(C)CC4)cc1,EC50,MAC251,PBMC,,PCR,,,SIV,16.6 µM
Nc1nc(N)c2ncn(CC(CO)OCP(=O)(O)O)c2n1,EC50,AD169,HEL,,cytopathic effect,,,Cytomegalovirus,10 µg/mL
O=C(Nc1ccc(Br)cc1)c1cc(Cl)ccc1OP(=O)(c1ccccc1)c1ccccc1,MIC,My 6509/96,,,,,21 d,Mycobacterium kansasii,8 µM
S=c1nc[nH]c2c1ncn2C1CCCO1,inhibition,TYPE 2,LLC-MK2,,plaque count,100 µM,,Dengue virus,14%
C#CC[C@@H](C(=O)N[C@H](/C=C/C(=O)OCC)C[C@@H]1CCNC1=O)n1cccc(NC(=O)c2cc(C)on2)c1=O,inhibition,Serotype 87,H1-HELA,,cytopathic effect / XTT,0.09 µM,,Rhinovirus,90%
CN(C)c1ccc(O)c2c1C[C@H]1C[C@H]3[C@H](N(C)C)C(=O)C(C(N)=O)=C(O)[C@@]3(O)C(=O)C1=C2O,MIC90,25 strains (methicillin-susceptible),,,,,,Staphylococcus aureus,0.12 µg/mL
CC[C@@]1(OC(=O)CN)C(=O)OCc2c1cc1n(c2=O)Cc2cc3ccccc3nc2-1,MIC,Mutant ΔERG6,,,,,,Saccharomyces cerevisiae,6.25 µg/mL
CO[C@H]1/C=C/O[C@@]2(C)Oc3c(C)c(O)c4c(O)c(c(/C=N/N5CCN(C)CC5)c(O)c4c3C2=O)NC(=O)/C(C)=C\C=C\[C@H](C)[C@H](O)[C@@H](C)[C@@H](O)[C@@H](C)[C@H](OC(C)=O)[C@@H]1C,MIC50,20 strains (methicillin-resistant),,,,,,Staphylococcus aureus,0.0078 µg/mL
C[C@@H]1[C@H](O)[C@@H](C)/C=C/C=C/CC/C=C/C=C/C=C/C=C/C(O[C@H]2O[C@H](C)[C@@H](O)[C@H](N)[C@@H]2O)CC2O[C@](O)(CC(O)C(O)CCC(O)CC(O)CC(O)CC(=O)O[C@H]1C)CC(O)C2C(=O)O,MIC100,ATCC 40042,,,broth dilution,,,Candida tropicalis,64 µg/mL
C[C@H](Cc1ccc(O)c(O)c1)[C@@H](C)Cc1ccc(O)c(O)c1,MIC50,CCC 122-2000,,,broth dilution,,,Candida colliculosa,125 µg/mL
CC(C)CCCC(=O)CCCCCCC(=O)CCN(O)C(=O)C(N)CO,EC50,,BC3,,GFP / microscopy,,,Kaposi sarcoma virus,>100 µM
Oc1c(O)c(Cl)c(Cl)c(Cl)c1Cl,MIC,,,,,,,Saccharomyces cerevisiae,20 µg/mL
O=c1c2cccnc2[se]n1N(c1ccccc1)c1ccccc1,MIC,,,,,,,Vesicular stomatitis virus,500 µg/mL
NC(=O)c1ncn([C@@H]2O[C@H](CO)[C@@H](O)[C@H]2O)n1,EC50,20,HEP-2,,plaque count,,,Respiratory syncytial virus,4 µg/mL
CCc1c2c(nc3ccc(O)cc13)-c1cc3c(c(=O)n1C2)COC(=O)[C@@]3(CC)OC(=O)CN,MIC,JHY6-1C,,,,,,Saccharomyces cerevisiae,>100 µg/mL
CO[C@H]1/C=C/O[C@@]2(C)Oc3c(C)c(O)c4c(O)c(c5c(c4c3C2=O)NC2(CCN(CC(C)C)CC2)N=5)=NC(=O)/C(C)=C\C=C\[C@H](C)[C@H](O)[C@@H](C)[C@@H](O)[C@@H](C)[C@H](OC(C)=O)[C@@H]1C,MIC50,20 strains (methicillin-resistant),,,,,,Staphylococcus aureus,0.0313 µg/mL
Nc1nc(=O)n([C@@H]2CS[C@H](CO)O2)cc1F,EC50,WILD TYPE,Huh7,,,,,Duck hepatitis B virus,9.5 µM
Nc1nc2c(ncn2CCOCP(=O)(O)O)c(=O)[nH]1,EC50,CC,,,neutral red,,,Measles virus,10 µg/mL
CC(C)c1cc2c(c(O)c1O)[C@@]1(C(=O)O)CCCC(C)(C)C1CC2,MIC,,,,broth dilution,,,Aspergillus tubingensis,200 µg/mL
COc1ccc2c(O[C@@H]3C[C@H]4C(=O)N[C@]5(C(=O)NS(=O)(=O)C6CC6)C[C@H]5/C=C\CCCCN(C)C(=O)[C@@H]4C3)cc(-c3nc(C(C)C)cs3)nc2c1C,inhibition,1b,Huh7,,luciferase / replicon,0.012 µM,,Hepatitis C virus,96.91%
Nc1nc2c(ncn2[C@@H]2O[C@H](CO)[C@H]2CO)c(=O)[nH]1,EC50,,P3HR-1,,hybridisation,,,Epstein-Barr virus,0.16 µg/mL
Nc1nc2c(ncn2COC(CO)CO)c(=O)[nH]1,EC50,HPMPC-resistant,C1271,,plaque count,,,Mouse cytomegalovirus,11 µM
CC1=CC(=C(c2ccc(N)cc2)c2ccc(N)cc2)C=CC1=N,EC50,,BC3,,GFP / microscopy,,,Kaposi sarcoma virus,0.5 µM
Nc1nc(N)c2ncn(C[C@@H](CO)OCP(=O)(O)O)c2n1,EC90,,Primary duck hepatocytes,,hybridisation,,,Duck hepatitis B virus,0.19 µM
CC(C)c1cc2c(c(O)c1O)[C@@]13CCCC(C)(C)C1C[C@@H]2OC3=O,MIC,,,,broth dilution,,,Aspergillus tubingensis,300 µg/mL
Nc1ncc2ncn(CCOCP(=O)(O)O)c2n1,EC50,DAVIS,HEL,,plaque count,,,Cytomegalovirus,200 µg/mL
Nc1ncnc2c1ncn2CCOCP(=O)(O)O,EC50,,P3HR-1,,hybridisation,,,Epstein-Barr virus,3.3 µg/mL
Nc1nc2c(ncn2COCCOCP(=O)(O)O)c(=O)[nH]1,EC50,HPMPC-resistant,C1271,,plaque count,,,Mouse cytomegalovirus,3.1 µM
Nc1nc(N)c2ncn(CCOCP(=O)(O)O)c2n1,EC50,AD169,HEL,,cytopathic effect,,,Cytomegalovirus,20 µg/mL
CC[C@@]1(O)C(=O)OCc2c1cc1n(c2=O)Cc2cc3c(N)cccc3nc2-1,MIC,Mutant ΔERG6 ΔTOP1,,,,,,Saccharomyces cerevisiae,>100 µg/mL
CC(C)(CO)C(=O)SCCOP(=O)(NCc1ccccc1)OC[C@H]1O[C@@H](n2cnc3c(=O)[nH]c(N)nc32)[C@](C)(O)[C@@H]1O,fold resistance,GT1a,Replicon cells,L31M,replicon,,,Hepatitis C virus,1.04
O=c1c2cccnc2[se]n1-c1ccc(Cl)cc1,MIC,,,,,,,Vesicular stomatitis virus,500 µg/mL
CC(C)OC(=O)[C@H](C)N[P@](=O)(OC[C@H]1O[C@@H](n2ccc(=O)[nH]c2=O)[C@](C)(F)[C@@H]1O)Oc1ccccc1,inhibition,1b Con1,Huh7,,luciferase / replicon,0.03 µM,,Hepatitis C virus,26.8%
C[C@H]1COc2c(N3CCN(C)CC3)c(F)cc3c(=O)c(C(=O)O)cn1c23,MIC50,25 strains (ofloxacin-resistant),,,,,,Staphylococcus aureus,16 µg/mL
c1ccc([Se][Se]c2ccccc2)cc1,MFC,,,,broth dilution,,,Candida guilliermondii,>64 µg/mL
O=C(Nc1ccc(Cl)cc1)c1cc(Cl)ccc1OP(=O)(OCc1ccccc1)OCc1ccccc1,MIC,My 235/80,,,,,21 d,Mycobacterium kansasii,32 µM
Nc1nc2c(ncn2CC(CO)OCP(=O)(O)O)c(=O)[nH]1,EC50,Foscarnet-resistant,C1271,,plaque count,,,Mouse cytomegalovirus,0.8 µM
CO[C@H]1C[C@H](O[C@H]2CC[C@]3(C=O)[C@H]4CC[C@]5(C)[C@@H](C6=CC(=O)OC6)CC[C@]5(O)[C@@H]4CC[C@]3(O)C2)O[C@H](C)[C@H]1O[C@H]1O[C@H](CO)[C@@H](O)[C@H](O)[C@H]1O,EC50,,BC3,,GFP / microscopy,,,Kaposi sarcoma virus,0.1 µM
O=C(Nc1ccc(Cl)c(Cl)c1)c1cc(Cl)ccc1OP(=O)(Oc1ccccc1)Oc1ccccc1,MIC,My 6509/96,,,,,14 d,Mycobacterium kansasii,4 µM
CC1COc2c(N3CCN(C)CC3)c(F)cc3c(=O)c(C(=O)O)cn1c23,MIC90,10 strains,,,,,,Enterococcus faecium,4 µg/mL
O=C1c2ccccc2OP(=O)(c2ccccc2)N1c1ccccc1,MIC,My 6509/96,,,,,21 d,Mycobacterium kansasii,500 µM
Nc1ccn(C[C@H]2COP(=O)(O)CO2)c(=O)n1,EC50,,P3HR-1,,hybridisation,,,Epstein-Barr virus,0.3 µg/mL
NC(=O)c1ncn([C@@H]2O[C@H](CO)[C@@H](O)[C@H]2O)n1,EC50,Chicago,CV-1,,cytopathic effect,,,Measles virus,25 µg/mL
O=C(Nc1ccc(C(F)(F)F)cc1)c1cc(Br)ccc1OP(=O)(Oc1ccccc1)Oc1ccccc1,MIC,My 6509/96,,,,,14 d,Mycobacterium kansasii,4 µM
Cc1cn([C@H]2C[C@H](F)[C@@H](CO)O2)c(=O)[nH]c1=O,EC50,1010,PBMC,,ELISA,,,HIV-2,0.008 µM
NC(=O)c1ncn([C@@H]2O[C@H](CO)[C@@H](O)[C@H]2O)n1,EC50,,VERO,,plaque count,,,Punta Toro virus,114 µM
N[C@@H]1CN(c2c(F)cc3c(=O)c(C(=O)O)cn([C@@H]4C[C@@H]4F)c3c2Cl)CC12CC2,MIC90,38 strains (ampicillin-susceptible),,,,,,Haemophilus influenzae,≤0.004 µg/mL
CC[C@]1(O)C[C@H]2CN(CCc3c([nH]c4ccccc34)[C@@](C(=O)OC)(c3cc4c(cc3OC)N(C=O)[C@H]3[C@@](O)(C(=O)OC)[C@H](OC(C)=O)[C@]5(CC)CCCN6CC[C@]43[C@@H]65)C2)C1,EC50,,BC3,,GFP / microscopy,,,Kaposi sarcoma virus,<0.05 µM
NC(=O)c1nc(F)c[nH]c1=O,EC50,H1N1 PR/8/34,MDCK,,plaque count,,,Influenza A virus,0.16 µg/mL
C[C@H]1NCc2cc(-c3ccc4c(=O)c(C(=O)O)cn(C5CC5)c4c3OC(F)F)ccc21,MIC90,17 strains (beta-lactamase-producing),,,,,,Haemophilus influenzae,0.03 µg/mL